This is an account of results in patent publication US20230355708A1, “COMPOSITIONS FOR INHIBITING VIRAL ENTRY AND METHODS USING SAME” (DREXEL UNIVERSITY, published 2023).

Assay [1] deals with SARS-CoV-2 spike S2 subunit (SARS-CoV-2, UniProt P0DTC2 686-1213).
For assay [2], the target named is SARS-CoV-2 spike S1 subunit (SARS-CoV-2, UniProt P0DTC2 16-685).

B1: P51G-CVN (other)
chain: LGKFSQTCYNSAIQGSVLTSTCERTNGGYNTSSIDLNSVIENVDGSLKWQGSNFIETCRNTQLAGSSELAAECKTRAQQFVSTKINLDDHIANIDGTLKYE
On to B1, for which the binding result in assay [1] and in assay [2] was “binds” throughout.
